Measurements reported in PubChem BioAssay AID504761 (Drosophila RNAi Screening Center, 2011)
Assay: 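Insect host genes that dengue virus relies on to spread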 (primary screen). Cells: D.Mel-2 cells from Drosophila. Knock-down reagent: long dsRNA against Drosophila genes. Treatment: infection with dengue virus type 2; dose and infection time not stated. Measurement: 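Per well on two replicate plates, imaging gave the percent of cells positive for viral envelope protein, ranked by infection, and a nuclear count of cells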. Direction: infection score: higher = more virus-infected cells; cell count: higher = more cells in the well. Call rule: 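Very low infection ranking in both replicate wells (chance probability at most 0.065), then a retest showing infection dropped 1.5-fold or more at p below 0.05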. Meaning of the calls: active = confirmed: knock-down lowers infection; inactive = not picked or not confirmed.
In all, the deposit lists about 22,000 reagents; this is a random part of those with a known target gene and a result. In the full data, 116 (0.52%) were called active. 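Calls depend on retest data that are not deposited; infection was ranked per plate without normalising between plates; the unit of the infection score is not given.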 Raw values are not corrected between plates. Reagents against one gene are numbered here. Not stated in the record: the amount of reagent, the time to read-out.

| predicted target | dsRNA no. | infection score, replicate 1 | infection score, replicate 2 | cell count, replicate 1 | cell count, replicate 2 | call |
| --- | --- | --- | --- | --- | --- | --- |
| CG1622 | 1 | 1.29 | 1.45 | 6495 | 6916 | inactive |
| CG1622 | 2 | 1.05 | 19.8 | 1048 | 5877 | inactive |
| CG15472 | 1 | 2.86 | 3.73 | 595 | 4291 | inactive |
| MICAL-like | 1 | 3.39 | 1.55 | 6761 | 6824 | inactive |
| Acbp3 | 1 | 5.03 | 1.47 | 6296 | 5855 | inactive |
| Acbp3 | 2 | 1.43 | 10.7 | 6104 | 5476 | inactive |
| CG17493 | 1 | 5.83 | 8.8 | 6592 | 6943 | inactive |
| Naxd | 1 | 1.34 | 5.41 | 6696 | 6207 | inactive |
| CG31419 | 1 | 9.54 | 9.82 | 5642 | 1976 | inactive |
| CG31419 | 2 | 14.7 | 11.8 | 5439 | 5851 | inactive |
| CG15673 | 1 | 6.39 | 4.16 | 6747 | 6925 | inactive |
| Ada2b | 1 | 13.1 | 8.44 | 6993 | 6471 | inactive |
| CG2865 | 1 | 1.59 | 1.5 | 6607 | 6620 | inactive |
| CG2865 | 2 | 14.9 | 4.23 | 3147 | 6451 | inactive |
| CG2865 | 3 | 16.2 | 21.4 | 2915 | 6971 | inactive |
| Pyroxd1 | 1 | 2.23 | 2.55 | 1477 | 6786 | inactive |
| Megf8 | 1 | 1.34 | 1.22 | 6414 | 6255 | inactive |
| nuf | 1 | 0.78 | 1.28 | 5802 | 6585 | inactive |
| nuf | 2 | 1.33 | 11.4 | 5950 | 5655 | inactive |
| nuf | 3 | 4.09 | 4.79 | 6108 | 6614 | inactive |
| nuf | 4 | 17.6 | 10.3 | 5638 | 5662 | inactive |
| btsz | 1 | 6.25 | 16.6 | 6717 | 3456 | inactive |

In a second layout: 9 of the entries above.
predicted target | dsRNA no. | infection score, replicate 1 | infection score, replicate 2 | cell count, replicate 1 | cell count, replicate 2 | call
CG2865 | 1 | 1.59 | 1.5 | 6607 | 6620 | inactive
CG2865 | 2 | 14.9 | 4.23 | 3147 | 6451 | inactive
CG2865 | 3 | 16.2 | 21.4 | 2915 | 6971 | inactive
Pyroxd1 | 1 | 2.23 | 2.55 | 1477 | 6786 | inactive
Megf8 | 1 | 1.34 | 1.22 | 6414 | 6255 | inactive
nuf | 1 | 0.78 | 1.28 | 5802 | 6585 | inactive
nuf | 2 | 1.33 | 11.4 | 5950 | 5655 | inactive
nuf | 3 | 4.09 | 4.79 | 6108 | 6614 | inactive
nuf | 4 | 17.6 | 10.3 | 5638 | 5662 | inactive

The listing continues.
| predicted target | dsRNA no. | infection score, replicate 1 | infection score, replicate 2 | cell count, replicate 1 | cell count, replicate 2 | call |
| --- | --- | --- | --- | --- | --- | --- |
| CG12511 | 1 | 3.96 | 1.29 | 6111 | 6874 | inactive |
| yellow-f | 1 | 4.87 | 3.3 | 6056 | 7059 | inactive |
| yellow-f | 2 | 10.2 | 11 | 6641 | 7015 | inactive |
| crm | 1 | 0.73 | 3.43 | 5614 | 5281 | inactive |
| crm | 2 | 1.97 | 1.97 | 6338 | 5932 | inactive |
| mrj | 1 | 3.12 | 2.91 | 6251 | 6278 | inactive |
| mrj | 2 | 3.77 | 0.69 | 5841 | 6369 | inactive |
| Etl1 | 1 | 13.8 | 8.19 | 6160 | 5632 | inactive |
| Hsp27 | 1 | 12 | 2.86 | 5872 | 6190 | inactive |
| Hsp27 | 2 | 2.9 | 3.2 | 6493 | 6445 | inactive |
| CG34248 | 1 | 0.37 | 0.14 | 5896 | 5576 | active |
| CG34214 | 1 | 25.6 | 6.7 | 5957 | 6717 | inactive |
| moody | 1 | 11.6 | 3.64 | 5632 | 6096 | inactive |
| CG12780 | 1 | 7.75 | 30.4 | 6526 | 5122 | inactive |
| alpha-Est3 | 1 | 2.78 | 3.49 | 6432 | 6533 | inactive |
| Dcp-1 | 1 | 3.61 | 7.48 | 6625 | 5989 | inactive |
| Ir94a | 1 | 4.9 | 7.34 | 5879 | 5685 | inactive |
| Ir94a | 2 | 16.5 | 16.1 | 3306 | 2164 | inactive |
| Prosbeta6 | 1 | 0.28 | 0.56 | 726 | 1062 | inactive |
| mRRF1 | 1 | 16.1 | 4.24 | 5063 | 6204 | inactive |
| PIP4K | 1 | 2.33 | 0.6 | 6018 | 499 | inactive |
| FucTC | 1 | 1.52 | 5.31 | 6564 | 5971 | inactive |
| FucTC | 2 | 39.5 | 38.6 | 3371 | 5936 | inactive |
| CG9641 | 1 | 7.07 | 2.45 | 6139 | 6397 | inactive |
| CG9641 | 2 | 15.8 | 5.19 | 6504 | 6914 | inactive |
| Cib2 | 1 | 1.91 | 2.43 | 6975 | 6798 | active |
| RpS28a | 1 | 9.77 | 7.93 | 6395 | 6634 | inactive |
| CG7352 | 1 | 8.49 | 15.3 | 6923 | 3394 | inactive |
| CG17187 | 1 | 17.1 | 7.21 | 4507 | 6411 | inactive |
| CG17187 | 2 | 15.1 | 7.4 | 6182 | 6108 | inactive |
| spin | 1 | 4.25 | 4.59 | 5622 | 6870 | inactive |
| spin | 2 | 5.43 | 2.45 | 6238 | 6660 | inactive |
| CG7296 | 1 | 11.1 | 6.88 | 6122 | 5971 | inactive |
| CG7296 | 2 | 2.86 | 3.28 | 6091 | 6431 | inactive |
| CG7296 | 3 | 4.78 | 7.57 | 6464 | 5771 | inactive |
| CG10137 | 1 | 20.9 | 7.56 | 6293 | 6602 | inactive |
| CG10137 | 2 | 16 | 4.85 | 5585 | 1651 | inactive |
| CG10137 | 3 | 5.91 | 13.1 | 6868 | 6770 | inactive |
